We go through one compound from ChEMBL document CHEMBL1122420, “Parasympatholytic (anticholinergic) esters of the isomeric 2-tropanols. 2. Non-glycolates” (J Med Chem, 1983).

This data set has as its system Mus musculus. The experiment in a line: LD50 in mice following i.v. administration. It counts as organism-based. Conditions: in vivo, iv.

SMILES strings stand for the structures.

With `COc1cc(C(=O)OC2CN3CCC2CC3)cc(OC)c1OC` (stereo unspecified), the LD50 was 18 mg/kg.

The LD50 is the dose expected to kill half of the subjects tested. Lower therefore signals greater toxicity.
